Laboratory results reported in publication PMC6759604 (Frontiers in Microbiology, 2019).

Tested on: Nc1ncnc2c1ncn2[C@@H]1O[C@H](COP(=O)(O)OP(=O)(O)OP(=O)(O)O)[C@@H](O)[C@H]1O
Test: purified protein
Conditions: Mg2+ 4 mM, pH 8.0, room temperature, labelled compound as trace

How did the Km turn out when “Vp HqsK (VP1876 HK; H-NOX-associated quorum sensing kinase) (Vibrio parahaemolyticus RIMD 2210633; D499A)” was run?
Its Km is 35 µM.
